Source: ChEMBL document CHEMBL4330144, “A mitochondria-targeted organic arsenical accelerates mitochondrial metabolic disorder and function injury” (Bioorg Med Chem, 2019)
Calls of active or inactive are those of the source. The rule behind the calls is not given here.

How the values were obtained:
[1] = species: Rattus norvegicus; assay: Induction of mitochondrial membrane potential loss in isolated Wistar rat mitochondria assessed as activity recovery phase rate constant at 50 uM using pyruvate as substrate up to 3 hrs by microcalorimetry; format: functional
[2] = species: Rattus norvegicus; assay: Induction of mitochondrial membrane potential loss in isolated Wistar rat mitochondria assessed as activity recovery phase rate constant at 100 uM using pyruvate as substrate up to 3 hrs by microcalorimetry; format: functional
[3] = species: Rattus norvegicus; assay: Induction of mitochondrial membrane potential loss in isolated Wistar rat mitochondria assessed as stationary increase phase rate constant at 50 uM using pyruvate as substrate up to 3 hrs by microcalorimetry; format: functional
[4] = species: Rattus norvegicus; assay: Induction of mitochondrial membrane potential loss in isolated Wistar rat mitochondria assessed as stationary increase phase rate constant at 100 uM using pyruvate as substrate up to 3 hrs by microcalorimetry; format: functional
[5] = species: Rattus norvegicus; assay: Induction of mitochondrial membrane potential loss in isolated Wistar rat mitochondria assessed as decline phase rate constant at 50 uM using pyruvate as substrate up to 3 hrs by microcalorimetry; format: functional
[6] = species: Rattus norvegicus; assay: Induction of mitochondrial membrane potential loss in isolated Wistar rat mitochondria assessed as decline phase rate constant at 100 uM using pyruvate as substrate up to 3 hrs by microcalorimetry; format: functional
[7] = species: Rattus norvegicus; assay: Induction of mitochondrial membrane potential loss in isolated Wistar rat mitochondria assessed as maximum power output time at 50 uM using pyruvate as substrate up to 3 hrs by microcalorimetry; format: functional
[8] = species: Rattus norvegicus; assay: Induction of mitochondrial membrane potential loss in isolated Wistar rat mitochondria assessed as maximum power output time at 100 uM using pyruvate as substrate up to 3 hrs by microcalorimetry; format: functional
[9] = species: Rattus norvegicus; assay: Induction of mitochondrial membrane potential loss in isolated Wistar rat mitochondria assessed as total heat output at 50 uM using pyruvate as substrate up to 3 hrs by microcalorimetry; format: functional
[10] = species: Rattus norvegicus; assay: Induction of mitochondrial membrane potential loss in isolated Wistar rat mitochondria assessed as total heat output at 100 uM using pyruvate as substrate up to 3 hrs by microcalorimetry; format: functional
[11] = test system: NB-4; assay: Induction of decrease in intracellular total thiols level in human NB4 cells up to 2.4 uM up to 24 hrs
[12] = test system: NB-4; assay: Induction of ROS generation in human NB4 cells up to 2.4 uM up to 24 hrs by DHE staining based flow cytometry
[13] = test system: NB-4; assay: Induction of ROS generation in human NB4 cells up to 2.4 uM up to 24 hrs by DCFH-DA staining based flow cytometry
[14] = test system: NB-4; assay: Cytotoxicity against human NB4 cells assessed as reduction in cell viability up to 3.6 uM up to 8 hrs by MTT assay
[15] = test system: NB-4; assay: Induction of mitochondrial membrane potential loss in human NB4 cells at 1.2 uM after 1 hr by JC1 staining based flow cytometry (reference value: 27.7%)
[16] = test system: NB-4; assay: Induction of mitochondrial membrane potential loss in human NB4 cells at 1.2 uM after 3 hrs by JC1 staining based flow cytometry (reference value: 27.7%)
[17] = test system: NB-4; assay: Induction of mitochondrial membrane potential loss in human NB4 cells at 1.2 uM after 6 hrs by JC1 staining based flow cytometry (reference value: 27.7%)
[18] = test system: NB-4; assay: Cytotoxicity against human NB4 cells assessed as reduction in cell viability at 1.5 to 2 uM after 24 hrs in presence of DTT by trypan blue assay
[19] = test system: NB-4; assay: Cytotoxicity against human NB4 cells assessed as reduction in cell viability at 1.5 to 2 uM after 24 hrs in presence of DMP by trypan blue assay
[20] = test system: NB-4; assay: Cytotoxicity against human NB4 cells assessed as reduction in cell viability at 1.5 to 2 uM after 24 hrs in presence of DMSA by trypan blue assay
[21] = test system: NB-4; assay: Induction of mitochondrial membrane potential loss in human NB4 cells at 0.6 to 3.6 uM after 24 hrs by JC-1 staining based confocal microscopic method
[22] = test system: NB-4; assay: Cytotoxicity against human NB4 cells assessed as reduction in cell viability at 2.4 uM after 24 hrs in presence of PDHC-E2 co-enzyme LA by trypan blue assay
[23] = test system: NB-4; assay: Induction of apoptosis in human NB4 cells assessed as live cells at 1.2 uM after 24 hrs by Annexin V-FITC/propidium iodide staining based flow cytometry (reference value: 92%)
[24] = species: Rattus norvegicus; assay: Induction of inner mitochondrial membrane permeabilization in isolated Wistar rat mitochondria assessed as H+ permeabilization at 50 to 200 uM measured for 10 to 30 mins
[25] = species: Rattus norvegicus; assay: Induction of inner mitochondrial membrane permeabilization in isolated Wistar rat mitochondria assessed as K+ permeabilization at 50 to 200 uM measured for 10 to 30 mins
[26] = test system: NB-4; assay: Induction of apoptosis in human NB4 cells assessed as necrotic cells at 1.2 uM after 24 hrs by Annexin V-FITC/propidium iodide staining based flow cytometry (reference value: 0.1%)
[27] = test system: NB-4; assay: Induction of apoptosis in human NB4 cells assessed as early apoptotic cells at 1.2 uM after 24 hrs by Annexin V-FITC/propidium iodide staining based flow cytometry (reference value: 5%)
[28] = test system: NB-4; assay: Induction of apoptosis in human NB4 cells assessed as late apoptotic cells at 1.2 uM after 24 hrs by Annexin V-FITC/propidium iodide staining based flow cytometry (reference value: 2.9%)
[29] = test system: NB-4; assay: Induction of apoptosis in human NB4 cells assessed as nuclear condensation at 1.2 to 2.4 uM after 24 hrs by Hoechst 33342/propidium iodide staining based confocal microscopic method
[30] = test system: NB-4; assay: Induction of apoptosis in human NB4 cells assessed as decrease in cell size at 1.2 to 2.4 uM after 24 hrs by Hoechst 33342/propidium iodide staining based confocal microscopic method
[31] = test system: NB-4; assay: Induction of apoptosis in human NB4 cells assessed as live cells at 1.2 uM after 24 hrs in presence of Nec-1 by Annexin V-FITC/propidium iodide staining based flow cytometry (reference value: 92%)
[32] = test system: NB-4; assay: Induction of apoptosis in human NB4 cells assessed as necrotic cells at 1.2 uM after 24 hrs in presence of Nec-1 by Annexin V-FITC/propidium iodide staining based flow cytometry (reference value: 0.1%)
[33] = species: Rattus norvegicus; assay: Inhibition of mitochondrial respiration in isolated Wistar rat mitochondria assessed as decrease in succinate/ADP-stimulated respiratory control ratio up to 100 uM by Clark oxygen electrode method
[34] = test system: NB-4; assay: Induction of apoptosis in human NB4 cells assessed as late apoptotic cells at 1.2 uM after 24 hrs in presence of Nec-1 by Annexin V-FITC/propidium iodide staining based flow cytometry (reference value: 2.9%)
[35] = species: Rattus norvegicus; assay: Induction of mitochondrial membrane potential loss in isolated Wistar rat mitochondria assessed as total heat output at 200 uM using pyruvate as substrate up to 3 hrs by microcalorimetry (reference value: 10.32 to 10.36 J)
[36] = species: Rattus norvegicus; assay: Induction of mitochondrial membrane potential loss in isolated Wistar rat mitochondria assessed as maximum power output at 200 uM using pyruvate as substrate up to 3 hrs by microcalorimetry (reference value: 141.64 to 153.92 W)
[37] = species: Rattus norvegicus; assay: Induction of mitochondrial membrane potential loss in isolated Wistar rat mitochondria assessed as maximum power output time at 200 uM using pyruvate as substrate up to 3 hrs by microcalorimetry (reference value: 45.07 to 49.89 hrs)
[38] = species: Rattus norvegicus; assay: Induction of mitochondrial membrane potential loss in isolated Wistar rat mitochondria assessed as decline phase rate constant at 200 uM using pyruvate as substrate up to 3 hrs by microcalorimetry (reference value: -24.13 to -20.47 10^-3/min)
[39] = species: Rattus norvegicus; assay: Induction of mitochondrial membrane potential loss in isolated Wistar rat mitochondria assessed as stationary increase phase rate constant at 200 uM using pyruvate as substrate up to 3 hrs by microcalorimetry (reference value: 1 to 1.18 10^-3/min)
[40] = species: Rattus norvegicus; assay: Induction of mitochondrial membrane potential loss in isolated Wistar rat mitochondria assessed as activity recovery phase rate constant at 200 uM using pyruvate as substrate up to 3 hrs by microcalorimetry (reference value: 5.15 to 7.33 10^-3/min)

Q: How did the K [1] turn out when `Nc1ccc([As]2SCCCS2)cc1` was run?
A: 4.07 ×10⁻³ /min

Q: What about the K [2] of the same compound?
A: 3.08 ×10⁻³ /min

Q: What about the K [3] of the same compound?
A: 0.19 ×10⁻³ /min

Q: And the K [4]?
A: 0.66 ×10⁻³ /min

Q: What about the K [5] of the same compound?
A: -21.5 ×10⁻³ /min

Q: And the K [6]?
A: -16.2 ×10⁻³ /min

Q: And the TIME [7]?
A: 65.2 h

Q: What about the TIME [8] of the same compound?
A: 73.2 h

Q: And the Activity [9]?
A: 11.6 J

Q: What about the Activity [10] of the same compound?
A: 12.2 J

Q: And the Activity [11]?
A: Active

Q: What about the Activity [12] of the same compound?
A: Active

Q: And the Activity [13]?
A: Active

Q: And the Activity [14]?
A: inactive

Q: What about the Activity [15] of the same compound?
A: 20.9%

Q: What about the Activity [16] of the same compound?
A: 21.5%

Q: What about the Activity [17] of the same compound?
A: 23.1%

Q: What about the Activity [18] of the same compound?
A: inactive

Q: What about the Activity [19] of the same compound?
A: inactive

Q: What about the Activity [20] of the same compound?
A: inactive

Q: What about the Activity [21] of the same compound?
A: Active

Q: And the Activity [22]?
A: inactive

Q: What about the Activity [23] of the same compound?
A: 64.9%

Q: And the Activity [24]?
A: inactive

Q: And the Activity [25]?
A: inactive

Q: What about the Activity [26] of the same compound?
A: 1%

Q: And the Activity [27]?
A: 12.4%

Q: And the Activity [28]?
A: 21.7%

Q: What about the Activity [29] of the same compound?
A: Active

Q: And the Activity [30]?
A: Active

Q: What about the Activity [31] of the same compound?
A: 58.2%

Q: What about the Activity [32] of the same compound?
A: 1%

Q: What about the inhibition [33] of the same compound?
A: Active

Q: What about the Activity [34] of the same compound?
A: 28.7%

Q: What about the Activity [35] of the same compound?
A: 11.4 J

Q: And the Activity [36]?
A: 94.7 W

Q: And the TIME [37]?
A: 86.4 h

Q: What about the K [38] of the same compound?
A: -16.5 ×10⁻³ /min

Q: What about the K [39] of the same compound?
A: 0.62 ×10⁻³ /min

Q: And the K [40]?
A: 4.29 ×10⁻³ /min
